Results of unrelated studies side by side (data: NIAID ChemDB).

Common to all: tests on isolated targets

Neighbouring rows are from separate reports.

SMILES,target,dose,endpoint,species,value
COc1cc(C)ccc1C(=O)N(C)c1cc(-c2ccccc2)sc1C(=O)O,NS3 ATPase,,IC50,Hepatitis C virus,5–20 µM
COc1cc(-c2cc(-c3ccc(C(F)(F)F)cc3)nc3cc(C(=O)O)nn23)ccc1Cl,RNA-dependent RNA polymerase,,IC50,Hepatitis C virus,>10 µM
C=CCOc1cc2c(C(=O)NC)c(-c3ccc(F)cc3)oc2cc1N(CC=C)S(C)(=O)=O,Nonstructural protein 5B,,IC50,Hepatitis C virus,≤0.5 µM
Cc1ccccc1S(=O)(=O)Nc1cc(-c2ccc3[nH]ccc3c2)sc1C(=O)O,NS3 ATPase,,IC50,Hepatitis C virus,5–20 µM
CC(=O)Nc1cc(C(C)(C)C)c(SC2=C(O)CC(CCc3ccc(O)cc3)(C3CCCC3)OC2=O)cc1C,Nonstructural protein 5B,,IC50,Hepatitis C virus,1–10 µM
O=C(O)c1c[nH]n2c(=O)c(CC3CCCO3)c(-c3ccc(OCc4ccccc4)cc3)nc12,RNA-dependent RNA polymerase,,IC50,Hepatitis C virus,>10 µM
O=C1O[C@@](CCc2cccc(O)c2)(C2CCCC2)CC(O)=C1N(c1ccccc1)c1ccccc1,Nonstructural protein 5B,,IC50,Hepatitis C virus,10–50 µM
Cc1ccccc1S(=O)(=O)Nc1cc(-c2cc3ccccc3o2)sc1C(=O)O,NS3 ATPase,,IC50,Hepatitis C virus,<5 µM
O=C(O)[C@H](Cc1ccccc1)N(Cc1ccc(-c2cccc(C(F)(F)F)c2)o1)C(=O)c1ccc(Cl)cc1Br,RNA-dependent RNA polymerase,,IC50,Hepatitis C virus,<5 µM
COc1nc(Nc2ccc3cn[nH]c3c2)nc(N2CCC(O)CC2)n1,DNA polymerase,1 µg/mL,inhibition,Hepatitis B virus,48%
CN1CCN(C(=O)c2ccc3c(c2)nc(-c2cc4ccc(-c5ccccc5-c5ccc(Cl)cc5)nc4cc2F)n3C2CCCCC2)CC1,NS5B polymerase,100 µM,inhibition,Hepatitis C virus,91.41%
CCOc1cc(F)ccc1-c1oc2cc(-c3c(C)noc3C)c(OC)cc2c1C(=O)NC,Nonstructural protein 5B,,IC50,Hepatitis C virus,≤0.5 µM
COc1ccc(-c2ccc(F)c(F)c2)c(-c2ccc3cc(-c4nc5cc(C(=O)O)ccc5n4C4CCCCC4)ccc3n2)c1,NS5B polymerase,100 µM,inhibition,Hepatitis C virus,101%
CNC(=O)C1CCN(c2nc(Nc3ccc4[nH]ncc4c3)nc(OC)n2)CC1,DNA polymerase,0.1 µg/mL,inhibition,Hepatitis B virus,18%
CNC(=O)c1c(-c2ccc(F)cc2)oc2cc(C(C)(C)N)c(OC(C)C)cc12,Nonstructural protein 5B,,IC50,Hepatitis C virus,≤0.5 µM
COc1ccc(-c2ccc(CN(C(=O)c3ccc(Cl)cc3Cl)C(Cc3ccccc3)C(=O)O)o2)cc1,RNA-dependent RNA polymerase,,IC50,Hepatitis C virus,<5 µM
COc1ccccc1-c1cc(-c2ccc(Cl)cc2)nc2cc(C(=O)O)nn12,RNA-dependent RNA polymerase,,IC50,Hepatitis C virus,>10 µM
CC[C@H](C)C(NC(=O)c1ccc2c(c1)nc(-c1ccc3nc(-c4ccccc4)cnc3c1)n2C1CCCCC1)C(=O)O,NS5B polymerase,33 µM,inhibition,Hepatitis C virus,94.51%
COc1nc(Nc2ccc3cn[nH]c3c2)nc(N2CCOCC2)n1,Nonstructural protein 5B,0.1 µg/mL,inhibition,Hepatitis C virus,30%
Cc1cc(SC2=C(O)CC(CCc3ccc(O)cc3)(C3CCCC3)OC2=O)c(C(C)(C)C)cc1NS(=O)(=O)c1ccccc1,Nonstructural protein 5B,,IC50,Hepatitis C virus,1–10 µM
O=C(O)c1ccc(-c2ccc(CN(C(=O)c3ccc(Cl)cc3Cl)[C@@H](Cc3ccccc3)C(=O)O)o2)cc1,RNA-dependent RNA polymerase,,IC50,Hepatitis C virus,<5 µM
O=C(O)c1ccc2c(c1)nc(-c1ccc3nc(-c4c(O)ccc5ccccc45)ccc3c1)n2C1CCCCC1,NS5B polymerase,100 µM,inhibition,Hepatitis C virus,102%
CNC(=O)c1c(-c2ccccc2)oc2ccc(OCC(F)(F)F)cc12,Nonstructural protein 5B,,IC50,Hepatitis C virus,>30 µM
NC(=O)[C@H](Cc1ccccc1)NC(=O)c1ccc2cc(-c3nc4cc(C(=O)O)ccc4n3C3CCCCC3)ccc2n1,NS5B polymerase,100 µM,inhibition,Hepatitis C virus,98.58%
O=C(O)c1sc(-c2ccccc2)cc1NS(=O)(=O)c1ccc(Cl)cc1,NS3 ATPase,,IC50,Hepatitis C virus,<5 µM
COc1nc(Nc2ccc3[nH]ncc3c2)nc(N2CCC(C(N)=O)CC2)n1,DNA polymerase,0.01 µg/mL,inhibition,Hepatitis B virus,11%
CONC(=O)c1cnn2c(C3CCCCC3)c(-c3ccc(OCc4ccccc4)cc3)cnc12,RNA-dependent RNA polymerase,,IC50,Hepatitis C virus,>10 µM
CNC(=O)c1c(-c2ccc(F)cc2)oc2cc(C3CNC(=O)C3C(=O)NC)c(OC)cc12,Nonstructural protein 5B,,IC50,Hepatitis C virus,≤0.5 µM
COc1ccc(-c2cnc3c(-c4nn[nH]n4)cnn3c2-c2ccc(OC)cc2)cc1,RNA-dependent RNA polymerase,,IC50,Hepatitis C virus,>10 µM
COc1nc(Nc2ccc3[nH]ncc3c2)nc(N2CCN(CCO)CC2)n1,DNA polymerase,1 µg/mL,inhibition,Hepatitis B virus,55%
O=C(O)c1sc(-c2ccccc2)cc1N(Cc1ccc(F)cc1F)C(=O)C1CCCCC1,NS3 ATPase,,IC50,Hepatitis C virus,<5 µM
CNC(=O)c1c(-c2ccc(F)cc2)oc2cc(N(C)S(C)(=O)=O)c(OCc3cc(OC)cc(OC)c3)cc12,Nonstructural protein 5B,,IC50,Hepatitis C virus,≤0.5 µM
COc1cc(OC)c(CCC2(C3CCCC3)CC(O)=C(Sc3nc4ccc(C(=O)O)cc4[nH]3)C(=O)O2)cc1Cl,Nonstructural protein 5B,,IC50,Hepatitis C virus,<1 µM
COCCNc1nc(Nc2ccc3cn[nH]c3c2)nc(OC)n1,Nonstructural protein 5B,10 µg/mL,inhibition,Hepatitis C virus,63%
O=C(O)[C@@H](Cc1ccccc1)N(Cc1cccs1)C(=O)c1ccc(Cl)cc1Cl,RNA-dependent RNA polymerase,,IC50,Hepatitis C virus,<5 µM
COc1nc(Nc2ccc3cn[nH]c3c2)nc(N2CCN(C)CC2)n1,DNA polymerase,,IC50,Hepatitis B virus,0.1–1 µg/mL
COc1ccc(-c2csc(CN(C(=O)c3ccc(Cl)cc3Cl)C(Cc3ccccc3)C(=O)O)c2)cc1,RNA-dependent RNA polymerase,,IC50,Hepatitis C virus,<5 µM
CON1C(Nc2ccc3cn[nH]c3c2)=NC(NC(C)C)=NC1NC(C)C,DNA polymerase,0.01 µg/mL,inhibition,Hepatitis B virus,39%
O=C(O)c1sc(-c2ccccc2)cc1N(Cc1ccc(Cl)cc1)C(=O)CC1CCCC1,NS3 ATPase,,IC50,Hepatitis C virus,<5 µM
O=C(O)[C@H](Cc1ccccc1)N(Cc1ccc(Br)cc1)C(=O)c1ccc(Cl)cc1Cl,RNA-dependent RNA polymerase,,IC50,Hepatitis C virus,<5 µM
COc1cccc(CN(C(=O)CC(C)C)c2cc(-c3ccccc3)sc2C(=O)O)c1,NS3 ATPase,,IC50,Hepatitis C virus,<5 µM
Cc1nc(N)sc1-c1ccc2cc(-c3nc4cc(C(=O)O)ccc4n3C3CCCCC3)ccc2n1,NS5B polymerase,33 µM,inhibition,Hepatitis C virus,94.13%
CC(C)CCC(=O)N(C)c1cc(-c2ccccc2)sc1C(=O)O,NS3 ATPase,,IC50,Hepatitis C virus,5–20 µM
COc1nc(Nc2ccc3cn[nH]c3c2)nc(NN2CCN(C)CC2)n1,Nonstructural protein 5B,1 µg/mL,inhibition,Hepatitis C virus,43%

ICn is the concentration giving n% inhibition. Blank or dashed fields: not listed here. Percent inhibition refers to the dose given; in toxicity tests it is the harm to the cells. Two numbers with a dash give a range or band.